Measured values from several laboratories, pooled; numbers as filed in NIAID ChemDB.

Shared fields: whole-cell or culture tests; agent: Hepatitis C virus; read-out: EC50

Blank or dashed fields: not listed here. Conditions beyond the fields shown may differ between rows. ECn: concentration that inhibits the pathogen or its effect by n%. a–b is a range or a potency band.

SMILES | changes | strain | cell line | read by | result
O=C(Cc1cccnc1)N/N=C/c1ccccc1OS(=O)(=O)c1ccc(C(F)(F)F)cc1 | - | - | Huh7 | replicon | <5 µM
CC1CCC(C(=O)N(CC2CC2)c2cc(-c3ccc(NC(=O)c4ccccn4)cc3)sc2C(=O)O)CC1 | - | 1b | - | replicon | <0.5 µM
CCOc1nc(NCC(F)(F)F)nc2ccc(-c3ccc(F)cc3)nc12 | - | - | - | replicon | <0.1 µM
Nc1cc(Cn2c(C(=O)NS(=O)(=O)c3ccc(O)cc3)c(-c3ccc[nH]c3=O)c3c4ccccc4ccc32)ccn1 | - | - | - | replicon | 1–10 µM
CNC(=O)c1c(-c2ccc(F)cc2)oc2cc(N3CCOCC3)c(OCCCl)cc12 | - | - | Huh7 | replicon | >30 µM
NC(=O)c1cc(Cn2c(C(=O)O)c(-c3ccc[nH]c3=O)c3c4c(c(F)cc32)CCO4)cs1 | - | - | - | replicon | 0.5–1.5 µM
CNC(=O)c1c(-c2ccc(F)cc2)oc2cc(N(CCOC)S(C)(=O)=O)c(OC)cc12 | - | - | Huh7 | replicon | <1 µM
O=C(CC1C[C@@H]2CC[C@H]1C2)N/N=C/c1ccccc1OS(=O)(=O)c1ccc(C(F)(F)F)cc1 | - | - | Huh7 | replicon | <5 µM
CS(=O)(=O)Nc1cccc(S(=O)(=O)NC(=O)c2c(-c3ccc[nH]c3=O)c3c4ccccc4ccc3n2Cc2ccc(F)cc2F)c1 | - | - | - | replicon | <1 µM
CCCCNC(=S)Nc1ccc2c(c1)Cc1cc(Br)ccc1-2 | - | - | Ava5-EG(delta4AB)SEAP | reporter gene / fluorescence | 0.001–1 µM
CC1=C(C(=O)N2CCOCC2)Cc2ccccc2-c2c(C3CCCCC3)c3ccc(C(=O)NS(=O)(=O)N(C)C)cc3n21 | - | - | Huh7 | replicon | 0.01–1 µM
CC(C)N1CCN(S(=O)(=O)c2cc(-c3ccc4nc(NCc5ccc(S(N)(=O)=O)cc5)nc(NCC(F)(F)F)c4n3)ccc2F)CC1 | - | - | - | replicon | <0.1 µM
CN1CCN(c2cc3c(cc2F)c(=O)c(-c2noc(Cc4ccccc4)n2)cn3CCN2CCOCC2)CC1 | - | 1b | - | replicon | >10 µM
COc1cccc(CC(=O)N/N=C/c2c(OC)cccc2OS(=O)(=O)c2ccc(C(F)(F)F)cc2)c1 | - | - | Huh7 | replicon | <5 µM
O=C(NS(=O)(=O)c1ccccc1)c1ccc2c(C3CCCCC3)c3n(c2c1)CCCc1ncccc1-3 | - | - | Huh7 | replicon | 1–10 µM
O=C(Nc1ccc(C2SC(=Nc3cccc(F)c3)N(Cc3ccco3)C2=O)cc1)[C@H]1CCCN1C(=O)COc1ccccc1 | - | - | Huh7 | replicon | 0.1–1 µM
CCCCNC(=O)c1ccc(-c2ccc3nc(N)nc(OC(C)C)c3n2)cc1 | - | - | Huh7 | replicon | 0.3–1 µM
O=c1c(-c2noc(Cc3ccccc3)n2)cn(Cc2ccc(C(F)(F)F)cc2)c2cc(N(CCO)CCO)c(F)cc12 | - | 1b | - | replicon | <2 µM
O=C(O)c1c(-c2ccc[nH]c2=O)c2c3occ(Cl)c3ccc2n1Cc1ccccc1F | - | - | - | replicon | <0.5 µM
CCOc1nc(NCc2ccc(F)cc2)nc2ccc(-c3ccc(C(=O)NC4(C#N)CC4)cc3)nc12 | - | - | - | replicon | <0.1 µM
CNC(=O)c1c(-c2cccc(C(F)(F)F)c2)oc2ccc(OC)cc12 | - | - | Huh7 | replicon | <30 µM
O=C(Cc1ccc2c(c1)OCO2)N[C@H]1C[C@@H]1c1ccccc1OS(=O)(=O)c1ccc(C(F)(F)F)cc1 | - | - | Huh7 | replicon | >50 µM
COc1c(-c2ccc3cc(NS(C)(=O)=O)ccc3c2)cc(-n2ccc(=O)[nH]c2=O)cc1C(C)(C)C | M414T | genotype 1a H77 | Huh7 | luciferase | 0.031 µM
COc1ccc(OCCCCCOc2cccc(NC(N)=S)c2)cc1OC | - | - | Ava5-EG(delta4AB)SEAP | reporter gene / fluorescence | 0.001–1 µM
NS(=O)(=O)c1ccc(CNc2nc(NCC(F)(F)F)c3nc(-c4cnc(N5CCCC5)cn4)ccc3n2)cc1 | - | - | - | replicon | <0.1 µM
CCc1cccc(N=C2SC(c3ccc(NC(=O)[C@@H](C)NC(=O)OCc4ccccc4)cc3)C(=O)N2Cc2ccco2)c1 | - | - | Huh7 | replicon | 1–5 µM
O=C(NS(=O)(=O)C1CC1)c1c(-c2ccc[nH]c2=O)c2c3c(ccc2n1Cc1cc(F)ccc1F)CCO3 | - | - | - | replicon | <0.5 µM
COc1cccc(CC(=O)N/N=C/c2cc(F)ccc2OS(=O)(=O)c2ccc(C)cc2)c1 | - | - | Huh7 | replicon | <5 µM
NS(=O)(=O)c1ccc(CNc2nc(NCC(F)(F)F)c3nc(-c4ccc(F)c(S(N)(=O)=O)c4)ccc3n2)cc1 | - | - | - | replicon | <0.1 µM
Cc1ccc(COc2ccccc2/C=N/NC(=O)Cc2ccccc2)cc1 | - | - | Huh7 | replicon | >50 µM
CC1(C)CC(=O)C2=C(C1)Nc1c(O)cccc1NC2c1ccc(Cl)cc1 | - | 1b | - | luciferase / reporter gene / replicon | 26.3 µM
CC(C)(N)C(=O)Nc1ccc(-c2ccc3nc(N)nc(O[C@@H]4CCOC4)c3n2)cc1 | - | - | Huh7 | replicon | <0.3 µM
CC(=O)N1c2cccc(O)c2NC2=C(C(=O)CC(C)(C)C2)C1c1ccc(Oc2ccccc2)o1 | - | 1b | - | luciferase / reporter gene / replicon | 10.21 µM
O=C(O)c1c(-c2ccc[nH]c2=O)c2c3occc3c(F)cc2n1Cc1ccc2[nH]c(=O)[nH]c2c1 | - | - | - | replicon | <0.5 µM
COC(=O)c1ccc2c(C3CCCCC3)c3n(c2c1)CCCc1cc(OCc2cc([N+](=O)[O-])ccc2F)ccc1-3 | - | - | Huh7 | replicon | 1–10 µM
CCCCCOc1ccc(N(C(=O)c2cc(C)on2)c2nc(-c3cccnc3)cs2)cc1C(F)(F)F | - | - | - | - | <1 µM
O=C(O)c1ccc2c(C3CCCCC3)c3n(c2c1)CC(C(=O)N1CCOCC1)=Cc1ccccc1-3 | - | - | Huh7 | replicon | 0.01–1 µM
COc1cccc(CC(=O)N/N=C/c2ccc(Cl)cc2OS(=O)(=O)c2ccc(C(F)(F)F)cc2)c1 | - | - | Huh7 | replicon | 5–50 µM
CCC(C)c1ccc(N=C2SC(c3ccc(NC(=O)[C@H]4CCCN4C(=O)OCc4ccccc4)cc3)C(=O)N2Cc2ccco2)cc1 | - | - | Huh7 | replicon | 0.1–1 µM
Cc1oc(-c2ccccc2)nc1C(=O)N1c2cccc(O)c2NC2=C(C(=O)CC(C)(C)C2)C1c1ccc(OCc2ccccc2)cc1F | - | 1b | - | luciferase / reporter gene / replicon | 0.32 µM
Nc1nc2c(s1)CCCn1c-2c(C2CCCCC2)c2ccc(C(=O)O)cc21 | - | - | Huh7 | replicon | >10 µM
NC(=S)Nc1cccc(OCCCCCOc2cccc(C(=O)c3ccccc3)c2)c1 | - | - | Ava5-EG(delta4AB)SEAP | reporter gene / fluorescence | 0.001–1 µM
CNC(=O)c1c(-c2ccc(F)cc2)oc2cc(-c3c(C)noc3C)c(OCc3c(C)noc3C)cc12 | - | - | Huh7 | replicon | <1 µM
CC1CCC(C(=O)N(CC2CC2)c2cc(-c3ccc(NC(=O)c4ccn[nH]4)cc3)sc2C(=O)O)CC1 | - | 1b | - | replicon | <0.5 µM
NC(=O)COc1ccc2c(c1)S(=O)(=O)N=C(c1c(O)c3cc(F)ccc3n(CCC3CC3)c1=O)N2 | - | 1b BK | - | replicon | 0.051 µM
CC(C)(C)OC(=O)N1CCn2c(c(C3CCCCC3)c3ccc(C(=O)NS(C)(=O)=O)cc32)-c2ccccc21 | - | - | Huh7 | replicon | 0.01–1 µM
CC(C)CNC(=S)Nc1ccc2c(c1)Cc1cc(Br)ccc1-2 | - | - | Ava5-EG(delta4AB)SEAP | reporter gene / fluorescence | 0.001–1 µM
CC1(C)CC(=O)C2=C(C1)Nc1c(O)cccc1N(C(=O)c1nccnc1N)C2c1ccc(OCc2ccccc2)cc1F | - | 1b | - | luciferase / reporter gene / replicon | 1.03 µM
NC(=S)Nc1cccc(OCCCCCOc2nccc3ccccc23)c1 | - | - | Ava5-EG(delta4AB)SEAP | reporter gene / fluorescence | 0.001–1 µM
CNC(=O)c1c(-c2cccs2)oc2ccc(OC)cc12 | - | - | Huh7 | replicon | <30 µM
CCN(C(=O)C1CCC(C)CC1)c1cc(-c2ccc(NC(=O)c3cn(C)cn3)cc2)sc1C(=O)O | - | 1a | - | replicon | <0.5 µM
O=C(Cc1cccc(OC(F)(F)F)c1)N/N=C/c1ccccc1OS(=O)(=O)c1ccc(C(F)(F)F)cc1 | - | - | Huh7 | replicon | <5 µM
O=c1c(-c2noc(Cc3ccc(F)cc3)n2)cn(Cc2ccc(Cl)cc2)c2cc(N3CCN(c4ccccn4)CC3)c(F)cc12 | - | 1b | - | replicon | >10 µM
O=C(Cc1ccccc1)N/N=C/c1ccccc1OS(=O)(=O)c1ccc(OC(F)(F)F)cc1 | - | - | Huh7 | replicon | <5 µM
COC(=O)/C=C/c1ccc(NC(=O)C2(NC(=O)c3ccc4c(C5CCCCC5)c5n(c4c3)CC(C(=O)NCCN(C)C)=Cc3nccnc3-5)CCCC2)cc1 | - | - | Huh7 | replicon | 0.01–1 µM
CCCCCOc1ccc(N(C(N)=O)c2nc(-c3ccc4c(c3)NC(=O)CO4)cs2)cc1F | - | - | - | - | >10 µM
CC(C)C(=O)Nc1ccc(-c2ccc3nc(N)nc(O[C@H]4CCOC4)c3n2)cc1 | - | - | Huh7 | replicon | <0.3 µM
Cc1oncc1C(=O)Nc1ccc(-c2cc(N(C(=O)C3CCC(C)CC3)C(C)C)c(C(=O)O)s2)cc1 | - | 1a | - | replicon | >0.5 µM
CNC(=O)c1c(-c2ccc(F)cc2)oc2ccc(Cl)cc12 | - | - | Huh7 | replicon | <10 µM
CCCCCCCCOc1ccc(N(C(=O)COC(C)=O)c2nc(-c3ccc(F)cc3)cs2)cc1 | - | - | - | - | <1 µM
CN1CCN(c2cc3c(cc2F)c(=O)c(-c2noc(Cc4ccc(F)cc4)n2)cn3Cc2c(F)cccc2F)CC1 | - | 1b | - | replicon | >10 µM
CCc1cc(C(=O)Nc2ccc(-c3cc(N(C(=O)C4CCC(C)CC4)C(C)C)c(C(=O)O)s3)cc2)no1 | - | 1a | - | replicon | <0.5 µM
CC(C)COc1ccc(N(C(N)=O)c2nc(-c3ccc(O)c(C(N)=O)c3)cs2)cc1C(F)(F)F | - | - | - | - | <1 µM
CO[C@H](C(=O)N1CCC[C@@H]1C(=O)Nc1ccc(C2SC(=Nc3ccc(N4CCOCC4)cc3)N(Cc3ccccn3)C2=O)cc1)c1ccccc1 | - | - | Huh7 | replicon | <0.1 µM
CC(C)(c1ccc(F)cc1)c1nnc(-c2cn(Cc3ccc(C(F)(F)F)cc3)c3cc(N4CCOCC4)c(F)cc3c2=O)o1 | - | 1b | - | replicon | <2 µM
Cc1cnc(CN2C(=O)C(c3ccc(NC(=O)[C@H]4CCCN4C(=O)OCc4ccccc4)cc3)SC2=Nc2ccc(N3CCOCC3)cc2)cn1 | - | - | Huh7 | replicon | <0.1 µM
CS(=O)(=O)NC(=O)c1ccc2c(C3CCCCC3)c3n(c2c1)CCNc1ccccc1-3 | - | - | Huh7 | replicon | 0.01–1 µM
COC(=O)N[C@H](C(=O)N1CCCC1c1ncc(-c2ccc(-c3ccc(-c4cnc([C@@H]5CC(C)CN5C(=O)[C@@H](NC(=O)CO)C(C)C)[nH]4)cc3)cc2)[nH]1)C(C)C | ZL31W | 1b | ET | luciferase | 0.000045 µM
CN1CCN(c2cc3c(cc2F)c(=O)c(-c2noc(C(CCCC(N)=O)c4ccccc4)n2)cn3Cc2ccc(Cl)cc2)CC1 | - | 1b | - | replicon | <10 µM
O=C(O)c1c(-c2ccc[nH]c2=O)c2c3c(ccc2n1Cc1cc(F)ccc1F)OCCO3 | - | - | - | replicon | <1 µM
CC(=O)N1c2cccc(O)c2NC2=C(C(=O)CC(C)(C)C2)C1c1ccc(S(C)(=O)=O)cc1 | - | 1b | - | luciferase / reporter gene / replicon | >100 µM
CCOc1nc(NCc2ccc(NS(C)(=O)=O)cc2)nc2ccc(-c3ccc(F)cc3)nc12 | - | - | - | replicon | <0.1 µM

A second listing of 7 rows from above:

| SMILES | changes | strain | cell line | read by | result |
|---|---|---|---|---|---|
| CCc1cc(C(=O)Nc2ccc(-c3cc(N(C(=O)C4CCC(C)CC4)C(C)C)c(C(=O)O)s3)cc2)no1 | - | 1a | - | replicon | <0.5 µM |
| CCN(C(=O)C1CCC(C)CC1)c1cc(-c2ccc(NC(=O)c3cn(C)cn3)cc2)sc1C(=O)O | - | 1a | - | replicon | <0.5 µM |
| O=C(Cc1cccc(OC(F)(F)F)c1)N/N=C/c1ccccc1OS(=O)(=O)c1ccc(C(F)(F)F)cc1 | - | - | Huh7 | replicon | <5 µM |
| NS(=O)(=O)c1ccc(CNc2nc(NCC(F)(F)F)c3nc(-c4ccc(F)c(S(N)(=O)=O)c4)ccc3n2)cc1 | - | - | - | replicon | <0.1 µM |
| CNC(=O)c1c(-c2cccc(C(F)(F)F)c2)oc2ccc(OC)cc12 | - | - | Huh7 | replicon | <30 µM |
| NS(=O)(=O)c1ccc(CNc2nc(NCC(F)(F)F)c3nc(-c4cnc(N5CCCC5)cn4)ccc3n2)cc1 | - | - | - | replicon | <0.1 µM |
| COc1cccc(CC(=O)N/N=C/c2c(OC)cccc2OS(=O)(=O)c2ccc(C(F)(F)F)cc2)c1 | - | - | Huh7 | replicon | <5 µM |